Pooled drug test results. Numbers come from NIAID ChemDB, via PubChem.

All rows: enzyme or target tests; agent: HIV-1; target: Reverse transcriptase

Fold resistance: result on the changed form divided by that on wild type. Two numbers with a dash give a range or band. An empty or dashed field is not shown. ICn is the concentration giving n% inhibition. Percent inhibition refers to the dose given; in toxicity tests it is the harm to the cells. Conditions beyond the fields shown may differ between rows.

smiles | read by | changes | tested at | measure | strain or isolate | value
O=c1cc(Cc2ccccc2)nc(SCCCCO)[nH]1 |  | RT-Y181I |  | Ki |  | 516 µM
CCCCN1C(=O)c2cc(Cl)nnc2Oc2ccc(C)cc21 | ELISA |  | 330 µM | inhibition |  | 27%
Cc1nnc2c3ccccc3c(N3CCc4cc(O)c(O)cc4C3)nn12 | RT activity / fluorescence |  |  | IC90 | KER2008 | 2.78 µM
CC(C)(C)c1ccc(-n2nnnc2SCC(=O)Nc2ccc(NC(=O)c3cccc(C(=O)O)c3)cc2Cl)c(Cl)c1 | PicoGreen / fluorescence | RT-K103 Y181C |  | IC50 |  | <1 µM
CCN1c2ncc(CCOc3ccc(-n4cc(C(=O)O)nn4)cc3C)cc2C(=O)N(C)c2cccnc21 | nucleotide incorporation / radiometric | RT-K103N Y181C |  | IC50 | IIIB | 0.05–0.1 µM
CC(C)(C)c1ccc(-n2nnnc2SCC(=O)Nc2ccc(OCC(=O)NCCc3ccc(O)c(O)c3)cc2Cl)c(Cl)c1 | PicoGreen / fluorescence | RT-K103 Y181C |  | IC50 |  | <1 µM
Cc1cc(C)c2c(c1)N(C(C)C)C(=O)c1ccnnc1O2 | ELISA |  | 33 µM | inhibition |  | 65%
CC(C)(C#Cc1ccc(NC(=O)CSc2nnnn2-c2cc(Cl)c(C3CC3)cc2Cl)c(Cl)c1)C(=O)O | PicoGreen / fluorescence | RT-K103 Y181C |  | IC50 |  | <1 µM
COc1cc2c(cc1N)CN(c1nn3c(C4CC4)nnc3c3ccccc13)CC2 | RT activity / fluorescence |  |  | IC90 | 98US_MSC5016 | 9.83 µM
CCN1c2ncc(CCOc3ccc(C(=O)N=c4ccccn4O)cc3C)cc2C(=O)Nc2c(C)ccnc21 | nucleotide incorporation / radiometric | RT-K103N Y181C |  | IC50 | IIIB | 0.05–0.1 µM
CC(C)(C)c1ccc(-n2nnnc2SCC(=O)Nc2ccc(-c3ccc(/C=C/C(=O)O)cc3)cc2Cl)c(Cl)c1 | PicoGreen / fluorescence |  |  | IC50 | WT | <1 µM
CCN1c2ncc(CCOc3ccc(NC(=O)Nc4ccc(C(=O)O)cc4)cc3C)cc2C(=O)N(C)c2cccnc21 | nucleotide incorporation / radiometric | RT-K103N Y181C |  | IC50 | IIIB | <0.05 µM
COc1ccc2c(c1)N(CC(C)C)C(=O)c1ccnnc1O2 | ELISA |  | 33 µM | inhibition |  | 21%
CC(C)(C#Cc1ccc(NC(=O)CSc2nnnn2-c2ccc(C3CC3)cc2Cl)c(Cl)c1F)NC(=O)c1cc[n+]([O-])cc1 | PicoGreen / fluorescence |  |  | IC50 | WT | <1 µM
CS(=O)(=O)Nc1ccc2c(c1)CN(c1nn3c(C4CC4)nnc3c3ccccc13)CC2 | RT activity / fluorescence |  |  | IC50 | KER2008 | 0.57 µM
CCCN1C(=O)c2ccnnc2Oc2ccc(OC)cc21 | ELISA |  | 33 µM | inhibition |  | 12%
O=[N+]([O-])c1ccc2c(c1)CN(c1nn3c(C4CC4)nnc3c3ccccc13)CC2 | RT activity / fluorescence |  |  | IC90 | 98US_MSC5016 | 20.3 µM
CCN1c2ncc(CCOc3ccc(-c4ccc(C(=O)O)c(Cl)c4)cc3C)cc2C(=O)N(C)c2cccnc21 | nucleotide incorporation / radiometric | RT-K103N Y181C |  | IC50 | IIIB | 0.05–0.1 µM
CC(C)(C#Cc1ccc(NC(=O)CSc2nnnn2-c2ccc(C3CC3)cc2Cl)c(Cl)c1)OCCN1CCCCC1 | PicoGreen / fluorescence | RT-K103 Y181C |  | IC50 |  | <1 µM
CCc1cc(CCc2nc3ccccc3o2)c(=O)[nH]c1C | nucleotide incorporation | RT-Y181H |  | fold resistance |  | 31.9
Cc1c(N2CCc3ccccc3C2)nn2c(C)nnc2c1C | RT activity / fluorescence |  |  | IC90 | IIIB | 94.3 µM
CS(=O)(=O)NC(=O)c1ccc(NC(=O)CSc2nnnn2-c2ccc(C3CC3)cc2Cl)c(Cl)c1 | PicoGreen / fluorescence | RT-K103 Y181C |  | IC50 |  | <1 µM
COC(=O)NCCCCNc1nc(Cc2ccccc2)c(C)c(=O)[nH]1 |  | RT-Y181I |  | Ki |  | >1000 µM
Cn1cc(NC(=O)c2ccc(NC(=O)CSc3nnnn3-c3ccc(C(C)(C)C)cc3Cl)c(Cl)c2)cc1C(=O)O | PicoGreen / fluorescence |  |  | IC50 | WT | <1 µM
FC(F)(F)c1nnc2c3ccccc3c(N3CCc4ccccc4C3)nn12 | RT activity / fluorescence |  |  | IC90 | 98US_MSC5016 | 24.3 µM
CC(C)(O)C#Cc1ccc(NC(=O)CSc2nnnn2-c2cc(C(C)(C)C)ccc2Cl)c(Cl)c1 | PicoGreen / fluorescence |  |  | IC50 | WT | <1 µM
FC(F)(F)c1ccc2c(c1)CN(c1nn3c(C4CC4)nnc3c3ccccc13)CC2 | RT activity / fluorescence |  |  | IC90 | IIIB | 5.02 µM
CC(C)CCC(=O)Nc1ccc(NC(=O)CSc2nnnn2-c2ccc(C(C)(C)C)cc2Cl)c(Cl)c1 | PicoGreen / fluorescence |  |  | IC50 | WT | <1 µM
CCN1c2ncc(CCOc3ccc(-c4ccc(C(=O)O)c[n+]4[O-])cc3C)cc2C(=O)N(C)c2cccnc21 | nucleotide incorporation / radiometric | RT-K103N Y181C |  | IC50 | IIIB | <0.05 µM
c1cnc2c(c1)CN(c1nn3c(C4CC4)nnc3c3ccccc13)CC2 | RT activity / fluorescence |  |  | IC50 | IIIB | 3 µM
CCN1c2ncc(CCOc3ccc(-c4ccc(CC(=O)O)cc4O)cc3C)cc2C(=O)N(C)c2cccnc21 | nucleotide incorporation / radiometric |  |  | IC50 | IIIB | <0.05 µM
Cc1cc(Cl)c(-n2nnnc2SCC(=O)Nc2ccc(C#CC(C)(C)C(=O)O)cc2Cl)cc1C(F)(F)F | PicoGreen / fluorescence |  |  | IC50 | WT | <1 µM
CCN1c2ncc(CCOc3ccc(-c4ccn(CC(=O)O)n4)cc3)cc2C(=O)N(C)c2cccnc21 | nucleotide incorporation / radiometric | RT-K103N Y181C |  | IC50 | IIIB | >0.1 µM
Cc1c(Cc2ccccc2)nc(SCCCCO)[nH]c1=O |  | RT-L100I |  | fold resistance |  | 1.04

A second listing of 4 rows from above:

smiles,read by,changes,tested at,measure,strain or isolate,value
O=c1cc(Cc2ccccc2)nc(SCCCCO)[nH]1,,RT-Y181I,,Ki,,516 µM
FC(F)(F)c1nnc2c3ccccc3c(N3CCc4ccccc4C3)nn12,RT activity / fluorescence,,,IC90,98US_MSC5016,24.3 µM
Cc1cc(Cl)c(-n2nnnc2SCC(=O)Nc2ccc(C#CC(C)(C)C(=O)O)cc2Cl)cc1C(F)(F)F,PicoGreen / fluorescence,,,IC50,WT,<1 µM
c1cnc2c(c1)CN(c1nn3c(C4CC4)nnc3c3ccccc13)CC2,RT activity / fluorescence,,,IC50,IIIB,3 µM